A mixed list of measured activities; the numbers were collected in NIAID ChemDB.

Common to all: enzyme or target tests

Blank or dashed fields: not listed here. Fold resistance: result on the changed form divided by that on wild type. a–b is a range or a potency band. Rows are shuffled and stem from different studies. Percent inhibition refers to the dose given; in toxicity tests it is the harm to the cells. ICn: concentration for n% inhibition.

structure	organism	target	read-out	mutations	strain or isolate	tested at	read by	result
CCN1c2ncc(CCOc3ccc(CCC(=O)O)c4c3CCCC4)cc2C(=O)N(C)c2ccc(Cl)nc21	HIV-1	Reverse transcriptase	fold resistance	RT-K103N Y181C	-	-	nucleotide incorporation / radiometric	1–10
CC(C)(NC(=O)[C@@H]1CCCN1C(=O)[C@@H](O)[C@H](Cc1ccccc1)NC(=O)[C@H](CC(N)=O)NC(=O)OCc1ccccc1)C(N)=O	HIV-1	Protease	inhibition	-	-	5 µM	-	>90%
CN1CCn2c(nc(C(=O)NCc3ccc(F)cc3)c(O)c2=O)C1CN(C)S(=O)(=O)N(C)C	HIV-1	Integrase	IC50	-	-	-	ELISA	<10 µM
CCOC(=O)C(=O)CC(=O)/C=C/c1cc(-c2ccccc2)cn1Cc1ccc(F)cc1	HIV-1	RNase H	IC50	-	-	-	substrate cleavage / fluorescence	8 µM
COC(=O)[C@H](Cc1ccccc1)NC(=O)CC(=O)N[C@@H](Cc1ccccc1)C(=O)OC	HIV-1	Protease	inhibition	-	-	10 µM	absorbance	28%
CN1CCN(C(=O)C(=O)N(C)C2COCCn3c2nc(C(=O)NCc2ccc(F)cc2)c(O)c3=O)CC1	HIV-1	Integrase	IC50	-	-	-	ELISA	<10 µM
O=C(/C=C/c1cccn1Cc1ccc(F)cc1)CC(=O)C(=O)O	HIV-1	RNase H	IC50	Q475A	-	-	substrate cleavage / fluorescence	5.5 µM
Nc1ccn([C@H]2CC[C@@H](COP(=O)(O)OP(=O)(O)OP(=O)(O)O)O2)c(=O)n1	HIV	Reverse transcriptase	fold resistance	RT-M41L T215Y	-	-	nucleotide incorporation / radiometric	1.2
CCN1c2ncc(CCOc3ccc(CCC(=O)O)c4ccccc34)cc2C(=O)N(C)c2ccc(Cl)nc21	HIV-1	Reverse transcriptase	fold resistance	RT-Y188L	-	-	nucleotide incorporation / radiometric	>10
Nc1nc2c(ncn2[C@H]2CO[C@@H](COP(=O)(O)OP(=O)(O)OP(=O)(O)O)O2)c(=O)[nH]1	HIV	Reverse transcriptase	Ki	RT-K65R	-	-	radiometric	0.116 µM
CN(C)CC1c2nc(C(=O)NCc3ccc(F)cc3)c(O)c(=O)n2CCN1C	HIV-1	Integrase	IC50	-	-	-	ELISA	<10 µM
CCCC[C@@H](CN[C@@H](CCC(N)=O)C(=O)N[C@@H](CCCN=C(N)N)C(N)=O)NC(=O)[C@H](CCCC)NC(=O)C(NC(=O)C(NC(C)=O)[C@@H](C)O)[C@@H](C)CC	HIV	Protease	IC50	PR-K45I	-	-	HPLC	>2.17 µM
O=C1c2c(O)c(=O)ccn2CCN1Cc1cccc(Cl)c1	HIV-1	Integrase	IC50	-	-	-	ELISA	0.01–0.1 µM
CN1Cn2c(nc(C(=O)NCc3ccc(F)cc3)c(O)c2=O)C12CCCCC2	HIV-1	Integrase	IC50	-	-	-	ELISA	<10 µM
Cc1cn([C@H]2CC[C@@H](COP(=O)(O)OP(=O)(O)OP(=O)(O)O)O2)c(=O)[nH]c1=O	HIV	Reverse transcriptase	fold resistance	RT-D67N K70R T215Y K219Q	-	-	nucleotide incorporation / radiometric	1.67
O=C(c1cn2ccn(Cc3cccc(Cl)c3)c(=O)c2c(O)c1=O)N1CCCC1	HIV-1	Integrase	IC50	-	-	-	ELISA	0.01–0.1 µM
C=CCOC1C[C@@H](C(=O)NC(C)(C)C)N(C(=O)[C@@H](O)[C@H](Cc2ccccc2)NC(=O)[C@H](CS(C)(=O)=O)NC(=O)COc2cccc3ccccc23)C1	HIV-1	Protease	inhibition	-	-	0.05 µM	-	29.4%
COc1ccnc2[nH]cc(C(=O)C(=O)N3CCN(C(=O)c4ccccc4)C[C@H]3C)c12	HIV-1	gp120	fold resistance	GP120-M475I	NL4-3	-	ELISA	>97
CC(C)=CCN1Cc2cccc3[nH]c(=S)n(c23)C[C@@H]1C	HIV	Reverse transcriptase	fold resistance	RT-K263V	-	-	nucleotide incorporation	0.926
Cc1ccc(Cl)cc1Nc1nc(C(F)(F)F)ccc1C(=O)NN1CCN(c2cccc(Cl)c2)CC1	HIV-1	RNase H	fold resistance	K103N	-	-	RNase H / absorbance	2.3
CC(=O)Nc1cn2ccn(CCCc3c(F)cccc3Cl)c(=O)c2c(O)c1=O	HIV-1	Integrase	IC50	-	-	-	ELISA	0.01–0.1 µM
CC(=O)N1CCn2c(nc(C(=O)NCc3ccc(F)cc3)c(O)c2=O)C(N(C)C(=O)C(=O)N(C)C)C1	HIV-1	Integrase	IC50	-	-	-	ELISA	<10 µM
CC(=O)Nc1cc(F)ccc1CN1CCn2cc(-c3nccs3)c(=O)c(O)c2C1=O	HIV-1	Integrase	IC50	-	-	-	ELISA	0.1–1 µM
CC(C)[C@H](NC(=O)CCC(=O)CCC(=O)N[C@H](C(=O)OCc1ccccc1)C(C)C)C(=O)OCc1ccccc1	HIV-1	Protease	inhibition	-	-	10 µM	absorbance	<10%
Nc1ncnc2c1ncn2[C@H]1CC[C@@H](COP(=O)(O)OP(=O)(O)OP(=O)(O)OP(=O)(O)OC[C@@H]2CC[C@H](n3cnc4c(N)ncnc43)O2)O1	HIV	Reverse transcriptase	fold resistance	RT-M41L T215Y	-	-	nucleotide incorporation / radiometric	0.45
CS(=O)(=O)Cc1cc(=O)c(O)c2n1CCN(Cc1ccc(Cl)c(Cl)c1)C2=O	HIV-1	Integrase	IC50	-	-	-	ELISA	0.01–0.1 µM
Nc1nc2c(ncn2[C@H]2CC[C@@H](COP(=O)(O)OP(=O)(O)NP(=O)(O)OP(=O)(O)OC[C@H]3O[C@@H](n4cnc5c(N)ncnc54)[C@H](O)[C@@H]3O)O2)c(=O)[nH]1	HIV	Reverse transcriptase	fold resistance	RT-D67N K70R T215Y K219Q	-	-	nucleotide incorporation / radiometric	<0.56
CC(C)COC(=O)[C@H](Cc1ccccc1)NC(=O)/C=C\C(=O)N[C@@H](Cc1ccccc1)C(=O)OCC(C)C	HIV-1	Protease	inhibition	-	-	10 µM	absorbance	16%
CC(C)(C)NC(=O)[C@@H]1CCCN1C(=O)[C@@H](O)[C@H](Cc1ccccc1)NC(=O)[C@H](CS(N)(=O)=O)NC(=O)COc1cccc2ccccc12	HIV-1	Protease	inhibition	-	-	0.05 µM	-	29.5%
CNc1ccccc1C(=O)O[C@H]1[C@@H](O)[C@H](n2cnc3c(N)ncnc32)O[C@@H]1COP(=O)(O)OP(=O)(O)OP(=O)(O)OP(=O)(O)OC[C@@H]1CC[C@H](n2cnc3c(=O)[nH]c(N)nc32)O1	HIV	Reverse transcriptase	fold resistance	RT-M41L T215Y	-	-	nucleotide incorporation / radiometric	0.238
O=c1ccn2ccn(Cc3ccc(F)cc3)c(=O)c2c1O	HIV-1	Integrase	IC50	-	-	-	ELISA	0.01–0.1 µM
CC[C@@H](C)[C@H](NC(=O)[C@@H]1CCCN1C(=O)[C@@H](O)[C@H](CC1CCCCC1)NC(=O)[C@H](CSC)NC(=O)CCc1ccccc1)C(=O)N[C@H](C(N)=O)C(C)C	HIV-1	Protease	inhibition	-	-	5 µM	-	9.1%
O=C(O)c1cn(Cc2cccc(Cl)c2)c(=O)c2c(O)c(=O)ccn12	HIV-1	Integrase	IC50	-	-	-	ELISA	0.01–0.1 µM
CCN1c2ncc(CCOc3ccc(CC(=O)O)c4c3CCCC4)cc2C(=O)N(C)c2ccc(F)nc21	HIV-1	Reverse transcriptase	fold resistance	RT-K103N Y181C	-	-	nucleotide incorporation / radiometric	1–10
CC(C)(C)NC(=O)C1N(C(=O)[C@@H](O)[C@H](Cc2ccccc2)NC(=O)[C@H](CS(C)(=O)=O)NC(=O)COc2cccc3ccccc23)CSC1(C)C	HIV-1	Protease	inhibition	-	-	0.05 µM	-	99%
O=C(/C=C/c1cccn1Cc1ccccc1Cl)CC(=O)C(=O)O	HIV-1	RNase H	IC50	-	-	-	substrate cleavage / fluorescence	19.2 µM
O=c1ccn2c(CCCO)cn(Cc3ccc(Cl)c(Cl)c3)c(=O)c2c1O	HIV-1	Integrase	IC50	-	-	-	ELISA	0.01–0.1 µM
CC(C)[C@H](NC(=O)COc1cccc2ccccc12)C(=O)N[C@@H](Cc1ccccc1)[C@H](O)C(=O)N1CSC[C@H]1C(=O)NC(C)(C)C	HIV-1	Protease	IC50	-	-	-	-	<0.05 µM
CCOC(=O)C(=O)CC(=O)/C=C/c1cccn1Cc1ccc(C)cc1C	HIV-1	RNase H	IC50	R448A	-	-	substrate cleavage / fluorescence	10 µM
CCN1c2ncc(CCOc3ccc(C(=O)O)c4ccccc34)cc2C(=O)N(C)c2ccc(C)nc21	HIV-1	Reverse transcriptase	fold resistance	RT-Y188L	-	-	nucleotide incorporation / radiometric	>10
COC(=O)[C@@H](NC(=O)CC(Cc1ccccc1)C(=O)N[C@H](C(=O)OC)C(C)C)C(C)C	HIV-1	Protease	inhibition	-	-	10 µM	absorbance	<10%
Cn1cnc(CN2CCn3c(nc(C(=O)NCc4ccc(F)cc4)c(O)c3=O)C2(C)C)n1	HIV-1	Integrase	IC50	-	-	-	ELISA	<10 µM

Again, the opening 5 rows:

structure | organism | target | read-out | mutations | strain or isolate | tested at | read by | result
CCN1c2ncc(CCOc3ccc(CCC(=O)O)c4c3CCCC4)cc2C(=O)N(C)c2ccc(Cl)nc21 | HIV-1 | Reverse transcriptase | fold resistance | RT-K103N Y181C | - | - | nucleotide incorporation / radiometric | 1–10
CC(C)(NC(=O)[C@@H]1CCCN1C(=O)[C@@H](O)[C@H](Cc1ccccc1)NC(=O)[C@H](CC(N)=O)NC(=O)OCc1ccccc1)C(N)=O | HIV-1 | Protease | inhibition | - | - | 5 µM | - | >90%
CN1CCn2c(nc(C(=O)NCc3ccc(F)cc3)c(O)c2=O)C1CN(C)S(=O)(=O)N(C)C | HIV-1 | Integrase | IC50 | - | - | - | ELISA | <10 µM
CCOC(=O)C(=O)CC(=O)/C=C/c1cc(-c2ccccc2)cn1Cc1ccc(F)cc1 | HIV-1 | RNase H | IC50 | - | - | - | substrate cleavage / fluorescence | 8 µM
COC(=O)[C@H](Cc1ccccc1)NC(=O)CC(=O)N[C@@H](Cc1ccccc1)C(=O)OC | HIV-1 | Protease | inhibition | - | - | 10 µM | absorbance | 28%